By UniProt entry, the sequences of proteins in these tests, tags left out.
UniProt Q15717, whole entry: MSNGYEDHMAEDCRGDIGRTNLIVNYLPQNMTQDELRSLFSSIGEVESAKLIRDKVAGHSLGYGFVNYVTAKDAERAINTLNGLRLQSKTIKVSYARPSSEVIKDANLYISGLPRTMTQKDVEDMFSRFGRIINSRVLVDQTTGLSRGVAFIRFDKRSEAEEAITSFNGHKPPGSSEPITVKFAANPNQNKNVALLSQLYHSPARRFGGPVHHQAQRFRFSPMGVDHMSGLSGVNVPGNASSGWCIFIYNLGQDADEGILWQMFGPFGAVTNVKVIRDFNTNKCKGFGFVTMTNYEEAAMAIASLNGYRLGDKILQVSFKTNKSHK

In patent publication US20100260717:

Molecular target: HuR (ELAVL1) (Homo sapiens) (UniProt Q15717)
Assay: binding assay
Conditions: MITOMI; inhibited by ATA, not by most hits at 0.1 mM; protein translated in vitro; label: Cy5

Does “ACUCGAGCGGCCGCCACUGUGCUGGAUAUCGAUCCAUGGCGCGCCCUUUGGUUUUUCUUUGAGGUUUAGGAUUCGUGCUCAUGGUGCACGGUCUACGAGACCUCCCGGGGCACUCGCAAGCACCCUAUCAGGCAGUACCACAAGGCCUUUCGCGACCCAACACUACUCGGCUAGCAGUCUCGCGGGGGCACGCCCAAAUCUCCAGGCAUUGAGCGGGUUGAUCCAAGAAAGGACCCGGUCGUCCUGGCAAUUCCGGUGUACUCACCGGUUCCGCAGACCACUAUGGCUCUCCCGGGAGGGGGGGUCCUGGAGGCUGCACGACACUCAUACUAACGCCAUGGCUAGACGCUUUCUGCGUGAAGACAGUAGUUCCUCACAGGGGAGUGAUCUAUGGUGGAGUGUCGCCCCCAAUCGGGGGCUGGCUAUAGUGAGUCGUAUUAUGAUAUCUGCAGAAUUCCACCACACUGGACUAGUGGAUCCGAGCUCGGUACCAAGCUUAAGUUUAAACGCUAGCCAGCUUGGGUCU [HCV 3' negative terminus]” bind?
Result: binds

For at least one entry, the source does not settle the construct or the ends of the probe.
